Results of unrelated studies side by side (data: NIAID ChemDB).

Common to all: toxicity to cultured cells; endpoint: CC50

Two numbers with a dash give a range or band.

compound,method,cell line,result
O=c1[nH]c(=O)n([C@H]2C[C@H](F)[C@@H](CO)O2)cc1C#CI,-,PBM,25.6 µM
Nc1nc(N)c2ncn(CCOCP(=O)(O)O)c2n1,MTT,CBMC,30 µM
C[C@@H]1CC[C@@]2(OC1)O[C@H]1[C@@H](O)[C@H]3[C@@H]4CC[C@H]5C[C@@H](O[C@@H]6O[C@H](CO)[C@H](O[C@@H]7O[C@H](CO)[C@@H](O)[C@H](O[C@@H]8OC[C@@H](O)[C@H](O)[C@H]8O)[C@H]7O[C@@H]7O[C@H](CO)[C@H](O)[C@H](O[C@@H]8O[C@H](CO)[C@@H](O)[C@H](O)[C@H]8O)[C@H]7O)[C@H](O)[C@H]6O)[C@H](O)C[C@]5(C)[C@H]4CC[C@]3(C)[C@H]1[C@@H]2C,-,HeLa,0.15 µg/mL
CCCCC1CN(S(=O)(=O)c2cn(C)cn2)CCC12CCN(C1(C)CCN(C(=O)c3c(C)ncnc3C)CC1)CC2,-,CEM-R5,0.007 µM
[N-]=[N+]=N[C@H]1C[C@H](n2cc(C#CI)c(=O)[nH]c2=O)O[C@@H]1CO,-,PBM,19.7 µM
O=C1CN=C(c2ccc[nH]2)c2cc(Cl)ccc2N1,-,P4,3.36 µM
O=c1[nH]c(=O)n([C@H]2C[C@H](F)[C@@H](CO)O2)cc1/C(Cl)=C/I,-,PBM,18.4 µM
O=C1C(=O)N(CN2CCN(c3ccnc4cc(C(F)(F)F)ccc34)CC2)c2cccc(Br)c21,MTT / absorbance,Human foreskin fibroblasts,14 µM
CC(=O)c1c(O)c(C)c(O)c2c1OC1=CC(=O)/C(=C(/C)N[C@@H](Cc3cnc[nH]3)C(=O)O)C(=O)[C@@]12C,resazurin,L6,67.36 µM
Nc1nc2c(ncn2COC(CO)CO)c(=O)[nH]1,-,P3HR-1,11 µg/mL
Nc1nc(N)c2ncn(CC(CF)OCP(=O)(O)O)c2n1,-,HB611,200 µM
CCOC(=O)c1ccc2c(c1)nc(-c1ccc([N+](=O)[O-])cc1)n2CCN1CCCC1=O,MTT,Vero cell,>62.5 µg/mL
O=C[C@@H](O)[C@H](O)[C@H](O)[C@H](O)CO,-,HeLa,>200 µg/mL
Nc1nc2c(ncn2CCOCP(=O)(O)O)c(=O)[nH]1,MTT,HSB-2,1.7 µM
O=C1C(=O)N(CCCNc2ccnc3cc(C(F)(F)F)ccc23)c2cccc(Cl)c21,MTT / absorbance,Human foreskin fibroblasts,8.25 µM
CCCCCCCCCCCCCCCCOP(=O)([O-])OCCC[N+](C)(C)C,MTT,MCF,45.2 µM
NC(=S)N=Nc1c(O)n(CN2CCN(c3ccnc4cc(Cl)ccc34)CC2)c2cccc(Cl)c12,MTT / absorbance,Human foreskin fibroblasts,5 µM
C=C1C2C[C@]3(O)C=C4C=CC(=O)OC(C)(C)C4[C@H](O)CC3[C@]2(C)CCC1(O)C(C)C1CC=C(C)C(=O)O1,MTT,HL-60,24.33 µM
N[C@@H]1CONC1=O,MTT,Vero cell,>62.5 µg/mL
Nc1nc2c(ncn2CC(CF)OCP(=O)(O)O)c(=O)[nH]1,-,HB611,22 µM
Nc1ncnc2c1ncn2C[C@H]1COP(=O)(O)CO1,MTT,CBMC,66 µM
CCCCC1C(=O)N(CC2CCN(CC(F)F)CC2)CCC12CCN(C1(C)CCN(C(=O)c3c(C)ncnc3C)CC1)CC2,-,CEM-R5,0.07 µM
CC(N)C12CC3CC(CC(C3)C1)C2,-,Panc-1,10–4000 µM
CC(C)CCCc1ccc2c(c1)C(=O)C=C(N1CCCC1)C2=O,MTT,Human fibroblast 2C4,1610 µM
CCOC(=O)c1ccc2c(c1)nc(-c1ccc(N(C)C)cc1)n2CCN1CCCOC1,MTT,Vero cell,>62.5 µg/mL
Cc1nc(N)c2ncn(CC(CO)OCP(=O)(O)O)c2n1,-,HB611,>200 µM
Cc1nc(Cl)c([N+](=O)[O-])c(N2CC[N+](C)(C)CC2)n1,-,GMK,>483.6 µg/mL
NC12CC3CC(CC(C3)C1)C2,-,Panc-1,40–1000 µM
Nc1nc(N2CC[N+]3(CC2)CC[N+]2(CCN(c4nc(N)[nH]c(=O)c4[N+](=O)[O-])CC2)CC3)c([N+](=O)[O-])c(=O)[nH]1,-,GMK,>330.9 µg/mL
COC(=O)[C@@H]1[C@H](c2cc(OC)c3nc4cc(C)c(C)cc4nc3c2)c2cc3c(cc2C2=NOC[C@@H]21)OCO3,-,P-388,1 µM
Nc1[nH]n2c(=O)cc(CN3CC[N+]4(CC3)CC[N+]3(CCN(Cc5cc(=O)n6[nH]c(N)c([N+](=O)[O-])c6n5)CC3)CC4)nc2c1[N+](=O)[O-],-,GMK,>70.3 µg/mL
CC(=O)c1c(O)c(C)c(O)c2c1OC1=CC(=O)/C(=C(/C)N[C@@H](CC(N)=O)C(=O)O)C(=O)[C@@]12C,resazurin,L6,34.62 µM
C[C@H]1c2ccoc2C[C@H]2[C@H]1[C@@H](O)[C@@H](OC(=O)c1ccccc1)[C@@]1(O)C(C)(C)CCC[C@]21C,-,NCI-H187,2.9 µg/mL
COc1cc([C@@H]2c3cc4c(cc3[C@H](OC(C)=O)[C@@H]3COC(=O)[C@H]23)OCO4)cc2c1OCO2,-,P-388,2.27 µM
CCCCC1=NC(N)=C2NC=NC2(O)N1OCP(=O)(O)O,-,HB611,92 µM
COc1cc([C@@H]2c3cc4c(cc3[C@H](OC(C)=O)[C@@H]3COC(=O)[C@@H]23)OCO4)cc2c1OC1(N3CCOCC3)CCCCC1O2,-,MEL-28,8.66 µM
Nc1ccn([C@H]2CC[C@@H](CO)O2)c(=O)n1,-,P3HR-1,50 µg/mL
CCCCC1CN(S(=O)(=O)C2CC2)CCC12CCN(C1(C)CCN(C(=O)c3c(C)ncnc3C)CC1)CC2,-,CEM-R5,0.007 µM
CC[C@@]1(O)C(=O)OCc2c1cc1n(c2=O)Cc2cc3ccccc3nc2-1,MTT,HL-60,0.651 µg/mL
C[C@H](CCC(=O)NCCS(=O)(=O)O)[C@H]1CC[C@H]2[C@@H]3[C@H](O)C[C@@H]4C[C@H](O)CC[C@]4(C)[C@H]3C[C@H](O)[C@]12C,-,HeLa,>200 µg/mL
Nc1ncnc2c1ncn2C[C@@H](CO)OCP(=O)(O)O,-,HepG2 2.2.15,>100 µM
NC(=S)N=Nc1c(O)n(CN2CCN(c3ccnc4cc(Cl)ccc34)CC2)c2cc(Br)ccc12,MTT / absorbance,Human foreskin fibroblasts,2.8 µM
CCC[C@@H]1C[C@@H](C(=O)N[C@@H]([C@H]2O[C@H](SC)[C@H](O)[C@@H](O)[C@H]2O)[C@H](C)Cl)N(C)C1,-,HeLa,>100 µg/mL
Cc1cc(C)cc(S(=O)(=O)c2c(C(N)=O)[nH]c3ccc(Cl)cc23)c1,-,Lymphocytes,18 µM
CCOC(=O)c1ccc2c(c1)nc(-c1ccc(O)c(OC)c1)n2CCN1CCCC1=O,MTT,Vero cell,>62.5 µg/mL
COC(=O)[C@@H]1[C@H](c2cc(OC)c3nc4ccccc4nc3c2)c2cc3c(cc2C2=NOC[C@@H]21)OCO3,-,P-388,10 µM
Cc1cc(O)c2c(c1)C(=O)C(c1c(C)cc3c(c1O)C(=O)C=CC3=O)=CC2=O,-,J774A.1,26.46 µg/mL
C=C1C(C(C)C2CC=C(C)C(=O)O2)=CC[C@]2(C)C1C[C@]1(O)C=C3C=CC(=O)OC(C)(C)C3CCC21,MTT,BEL-7402,1.05 µM
CC(=O)c1c(O)c(C)c(O)c2c1OC1=CC(=O)/C(=C(/C)NNC(=O)c3ccccc3)C(=O)[C@@]12C,resazurin,L6,21.06 µM
Nc1ncnc2c1ccn2[C@@H]1CC[C@@H](O)[C@H]1O,-,P4,>42 µM
NCC[C@H](O)C(=O)N[C@@H]1C[C@H](N)[C@@H](O[C@H]2O[C@H](CN)[C@@H](O)[C@H](O)[C@H]2O)[C@H](O)[C@H]1O[C@H]1O[C@H](CO)[C@@H](O)[C@H](N)[C@H]1O,MTT,Vero cell,>62.5 µg/mL
Cc1cc(N2CC[N+](C)(C)CC2)c([N+](=O)[O-])c(N2CC[N+](C)(C)CC2)c1,-,K562,>322.9 µg/mL
C=C[C@]1(C)C[C@@H](OC(=O)CO)[C@]2(C)C(C)CC[C@]3(CCC(=O)C32)[C@@H](C)[C@@H]1O,-,HeLa,>530 µM
Nc1nc(N)c2ncn(CC(CO)OCP(=O)(O)O)c2n1,-,HB611,32 µM
CCC(N)C(O)C(O)C(C)C(=O)NC(CC(C)C)C1Cc2cccc(O)c2C(=O)O1,-,HeLa,2 µg/mL
CC1=CCC(C(C)C2=C(C)C3C[C@]4(O)C=C5C=CC(=O)OC(C)(C)C5[C@H](O)CC4[C@]3(C)C=C2)OC1=O,MTT,HL-60,19.56 µM
Nc1nc(N)c2ncn(C[C@@H](CO)OCP(=O)(O)O)c2n1,MTT,CBMC,27 µM
CCCCCCCCCCCCCCCCOP(=O)([O-])OCCC[n+]1ccccc1,MTT,MDA,59.9 µM
CC(=O)c1c(O)c(C)c(O)c2c1OC1=CC(=O)/C(=C(/C)N[C@@H](Cc3ccc(O)cc3)C(=O)O)C(=O)[C@@]12C,resazurin,L6,23.51 µM
Nc1nc2c(ncn2COCCO)c(=O)[nH]1,-,P3HR-1,>100 µg/mL
CC[C@H](CC[C@@H](C)[C@H]1CC[C@H]2[C@@H]3CC=C4C[C@@H](O)CC[C@]4(C)[C@H]3CC[C@]12C)C(C)C,MTT,L6 cells,6.2 µM
OC(CCl)CN1CC[N+]2(CC1)CC[N+]1(CCN(CC(O)CCl)CC1)CC2,-,K562,>415.5 µg/mL
Nc1nc(=O)n([C@@H]2CS[C@H](CO)O2)cc1F,-,CFU-GM,300 µM
Cc1nc(N2CC[N+]3(CC2)CC[N+]2(CCN(c4nc(C)nc5c4no[n+]5[O-])CC2)CC3)c2c(no[n+]2[O-])n1,-,K562,>334.8 µg/mL
CCCCCCCCCCCC(=O)OC[C@@H](O)COP(=O)([O-])OCC[N+](C)(C)C,-,HeLa,150 µg/mL
Nc1nc(=O)n([C@@H]2CC[C@H](CO)O2)cc1F,-,2.2.15,42 µM
O=c1[nH]cnc2c1ncn2[C@H]1CC[C@@H](CO)O1,-,HELA-CD4+,3.1 µM
CCCCCCCCCCCCCCCCOP(=O)([O-])OCC[n+]1ccccc1,MTT,HUVEC,94 µM
Nc1ncnc2c1ncn2CCOCP(=O)(O)O,-,Primary duck hepatocytes,>100 µM
CCCCCCCCCCCCCCCCOP(=O)([O-])OCCC[N+](C)(C)Cc1ccccc1,MTT,MCF,57.6 µM
Cc1c2ccncc2c(C)c2c1[nH]c1ccccc12,-,BC,0.3 µg/mL
C[C@@H](O)C1=C[C@@H](n2cnc3c(N)ncnc32)[C@H](O)[C@@H]1O,-,P4,>36 µM
COC1=CC([C@@H]2c3cc4c(cc3[C@H](OC(C)=O)[C@@H]3COC(=O)[C@H]32)OCO4)=CC(=O)C1=O,-,MEL-28,0.59 µM
O=C1C(=O)N(CCCNc2ccnc3cc(C(F)(F)F)ccc23)c2cc(Br)ccc21,MTT / absorbance,Human foreskin fibroblasts,4.75 µM
Nc1ccn(C[C@@H](CO)OCP(=O)(O)O)c(=O)n1,-,P3HR-1,18 µg/mL
CC1=C(/C=C/C(C)=C/C=C/C(C)=C/CO)C(C)(C)CCC1,-,HeLa,100 µg/mL
Nc1nccc2c1ncn2[C@@H]1CC[C@@H](O)[C@H]1O,-,P4,37 µM
O=[N+]([O-])c1c(C2CCCCCC2)ncnc1N1CC[N+]2(CC1)CC[N+]1(CCN(c3ncnc(C4CCCCCC4)c3[N+](=O)[O-])CC1)CC2,-,GMK,>67.8 µg/mL

The first 8 rows once more:

{"compound": "O=c1[nH]c(=O)n([C@H]2C[C@H](F)[C@@H](CO)O2)cc1C#CI", "cell line": "PBM", "result": "25.6 µM"}
{"compound": "Nc1nc(N)c2ncn(CCOCP(=O)(O)O)c2n1", "method": "MTT", "cell line": "CBMC", "result": "30 µM"}
{"compound": "C[C@@H]1CC[C@@]2(OC1)O[C@H]1[C@@H](O)[C@H]3[C@@H]4CC[C@H]5C[C@@H](O[C@@H]6O[C@H](CO)[C@H](O[C@@H]7O[C@H](CO)[C@@H](O)[C@H](O[C@@H]8OC[C@@H](O)[C@H](O)[C@H]8O)[C@H]7O[C@@H]7O[C@H](CO)[C@H](O)[C@H](O[C@@H]8O[C@H](CO)[C@@H](O)[C@H](O)[C@H]8O)[C@H]7O)[C@H](O)[C@H]6O)[C@H](O)C[C@]5(C)[C@H]4CC[C@]3(C)[C@H]1[C@@H]2C", "cell line": "HeLa", "result": "0.15 µg/mL"}
{"compound": "CCCCC1CN(S(=O)(=O)c2cn(C)cn2)CCC12CCN(C1(C)CCN(C(=O)c3c(C)ncnc3C)CC1)CC2", "cell line": "CEM-R5", "result": "0.007 µM"}
{"compound": "[N-]=[N+]=N[C@H]1C[C@H](n2cc(C#CI)c(=O)[nH]c2=O)O[C@@H]1CO", "cell line": "PBM", "result": "19.7 µM"}
{"compound": "O=C1CN=C(c2ccc[nH]2)c2cc(Cl)ccc2N1", "cell line": "P4", "result": "3.36 µM"}
{"compound": "O=c1[nH]c(=O)n([C@H]2C[C@H](F)[C@@H](CO)O2)cc1/C(Cl)=C/I", "cell line": "PBM", "result": "18.4 µM"}
{"compound": "O=C1C(=O)N(CN2CCN(c3ccnc4cc(C(F)(F)F)ccc34)CC2)c2cccc(Br)c21", "method": "MTT / absorbance", "cell line": "Human foreskin fibroblasts", "result": "14 µM"}

CCn: concentration that lowers growth or viability of the cells by n%. Neighbouring rows are from separate reports. Blank or dashed fields: not listed here.